Pooled drug test results. Numbers come from NIAID ChemDB, via PubChem.

Common to all: tests in culture; species: Mycobacterium tuberculosis

Rows are shuffled and stem from different studies. Blank or dashed fields: not listed here. Two numbers with a dash give a range or band. MIC bound comes from a single tested concentration. Percent inhibition refers to the dose given; in toxicity tests it is the harm to the cells. MIC50, MIC90 and the like: level of inhibition, or share of isolates inhibited. ECn: concentration that inhibits the pathogen or its effect by n%. Fold resistance: result on the changed form divided by that on wild type.

SMILES | cell line | mutations | read by | endpoint | strain or isolate | tested at | result
NC1[C@H]2CN(c3nc4c(cc3F)c(=O)c(C(=O)O)cn4-c3ccc(F)cc3F)C[C@@H]12 |  |  |  | MIC90 | 45 strains (drug-susceptible) |  | >4 µg/mL
COc1ccc(CCN2C(=O)C(=O)N(C)C2=O)cc1OC |  |  | BACTEC | inhibition | H37Rv | 12.5 µg/mL | 0%
C=C/C(C)=C/[C@@]1(C)SC(=O)C(C)=C1O |  |  |  | MIC | PMH29 |  | 2.5 µg/mL
CC1COc2c(N3CCN(C)CC3)c(F)cc3c(=O)c(C(=O)O)cn1c23 |  |  |  | MIC | 90-0216 (drug-susceptible) |  | 0.5 µg/mL
O=C1CC(c2ccc(O)cc2)Oc2ccccc21 |  |  |  | inhibition | H37Rv | 12.5 µg/mL | 18%
CO[C@H]1/C=C/O[C@@]2(C)Oc3c(C)c(O)c4c(O)c(c(/C=N/N5CCN(C)CC5)c(O)c4c3C2=O)NC(=O)/C(C)=C\C=C\[C@H](C)[C@H](O)[C@@H](C)[C@@H](O)[C@@H](C)[C@H](OC(C)=O)[C@@H]1C |  |  | resazurin | MIC | INH-r |  | 0.05–0.1 µg/mL
ClCCCN1c2ccccc2Sc2ccccc21 |  |  | agar | inhibition | H37Rv | 50 µg/mL | 20%
O=C(Nn1c(=S)[nH][nH]c1=S)c1ccccc1 |  |  | BACTEC | inhibition | H37Rv | 12.5 µg/mL | 5%
CO[C@H]1/C=C/O[C@@]2(C)Oc3c(C)c(O)c4c(O)c(c5c(c4c3C2=O)NC2(CCN(CC(C)C)CC2)N=5)=NC(=O)/C(C)=C\C=C\[C@H](C)[C@H](O)[C@@H](C)[C@@H](O)[C@@H](C)[C@H](OC(C)=O)[C@@H]1C |  |  |  | MIC | 2242 (rifampicin-susceptible) |  | 0.031 µg/mL
CCc1nc2ccccc2n1CCCCOc1cccc(C)c1 |  | WT | turbidity / fluorescence | MIC90 | H37Rv |  | 0.92 µM
CCCCCCCOc1ccc(NC(=O)OCC[NH+]2CCCC2)cc1 |  |  |  | MIC | My 331/88 |  | 32 µM
O=c1cc(-c2cccc(-c3cccc4c(=O)cc(-c5ccccc5)oc34)c2)oc2ccccc12 |  |  |  | EC50 |  |  | >12.5 µg/mL
O=C(NCCCN1c2ccccc2Sc2ccccc21)N1C(=O)/C(=C\c2cccc(Br)c2)SC1c1cccc(Br)c1 |  |  | agar | inhibition | H37Rv | 25 µg/mL | 30%
O=[N+]([O-])c1cn2c(n1)OC[C@@H](OCc1ccc(OC(F)(F)F)cc1)C2 |  |  |  | MIC | H37Rv-T2-3547 (PA-824-resistant) |  | 1.6 µM
CO[C@H]1/C=C/O[C@@]2(C)Oc3c(C)c(O)c4c(O)c(c(/C=N/N5CCN(C)CC5)c(O)c4c3C2=O)NC(=O)/C(C)=C\C=C\[C@H](C)[C@H](O)[C@@H](C)[C@@H](O)[C@@H](C)[C@H](OC(C)=O)[C@@H]1C |  |  | broth dilution | MIC | Clinical isolate 11677 |  | ≤0.1 µM
C[C@@H]1CN(c2ccccc2)C[C@H](C)OS(=O)O1 |  |  | BACTEC | MIC | H37Rv |  | ≥12.5 µg/mL
COc1ccc(-c2noc(C3=CC4(CCN(CC5CCCO5)CC4)c4ccccc43)n2)cc1 |  | Ethambutol-resistant | resazurin | MIC | 17003 |  | 0.39 µM
CCCCOc1ccccc1NC(=O)OCCN1CCCCC1 |  |  |  | MIC | My 331/88 |  | 250 µM
CCc1ccc([C@H]2C[C@@H](C(F)(F)F)n3ncc(C(=O)NCc4ccc5c(c4)OCO5)c3N2)cc1 |  | MmpL3: Ser591Ile | fluorescence | fold resistance | H37Rv |  | 30
CCN(CC)CCNc1ccc(CO)c2oc3ccc(OS(=O)(=O)c4ccc(C)cc4)cc3c(=O)c12 |  |  | BACTEC | inhibition | H37Rv | 12.5 µg/mL | 100%
CO/N=C1\CN(c2nc3c(cc2F)c(=O)c(C(=O)O)cn3C2CC2)CC1CN |  |  |  | MIC90 | 45 strains (drug-susceptible) |  | >4 µg/mL
C[N+](C)(C)CC(=O)N/N=C/C(O)C(O)C(O)C(O)CO |  |  | BACTEC | inhibition | H37Rv | 12.5 µg/mL | -10%
N[C@@H]1CONC1=O |  |  |  | MIC | 90-0201 (drug-susceptible) |  | 50 µg/mL
C[n+]1c(-c2ccc(/C=N/NC(=O)c3ccc(C(=O)N/N=C/c4ccc(-c5cn6ccccc6[n+]5C)cc4)cc3)cc2)cn2ccccc21 | VERO |  | BACTEC | MIC | H37Rv |  | 6.25 µg/mL
COc1ccc(/C=C/C(=O)c2cc(Br)ccc2O)cc1 |  |  |  | EC50 |  |  | >12.5 µg/mL
CCCCCCCCOc1ccc(NC(=O)OCCN2CCCCC2)cc1 |  |  |  | MIC | My 331/88 |  | 8 µM
COc1ccc(-c2noc(C3=CC4(CCN(C(=O)C5CCCO5)CC4)c4ccccc43)n2)cc1 |  |  | resazurin | MIC | H37Rv |  | 100 µM
COC(=O)C1=CO[C@H](C)[C@H]2CN3CCC4(C(=O)Nc5ccccc54)C3C[C@@H]12 |  |  | BACTEC | inhibition | H37Rv | 12.5 µg/mL | -4%
O=C1c2c(O)cc(O)cc2O[C@H](c2ccc(O)cc2)[C@H]1c1c(O)cc(O)c2c(=O)cc(-c3ccc(O)c(O)c3)oc12 |  |  |  | EC50 |  |  | >12.5 µg/mL
CC(NC(=O)c1cnc2ccccc2n1)C(=O)NC(C(=O)O)C(C)C |  |  | BACTEC | MIC bound | H37Rv |  | >12.5 µg/mL
C=C(NC(=O)c1csc(-c2nc3c(cc2O)-c2nc(cs2)C(=O)N[C@@H]([C@@H](C)O)C(=O)N/C(=C(\C)OC)c2nc(cs2)C(=O)N[C@@H]2c4nc(cs4)C(=O)N[C@@H](COC(=O)c4c5c6c(cccc6n4O)COC(=O)[C@@H](O[C@H]4C[C@](C)(O)[C@H](N(C)C)[C@H](C)O4)[C@H]2OC5)c2nc-3cs2)n1)C(N)=O |  | Rifampicin- isoniazid- moxifloxacin-resistant | broth dilution | MIC | Clinical isolate 6134 |  | ≤2.5 µM
CCCCCCCOc1cccc(NC(=O)OCCN(C)C)c1 |  |  |  | MIC | My 331/88 |  | 16 µM
Cc1cc(N=Nc2c(N)c(C)cc(N=Nc3ccc(C(N)=O)cc3)c2N)ccc1N=Nc1cc(C(=O)O)c(O)c(S(=O)(=O)O)c1 |  |  | resazurin | MIC bound | H37Rv |  | >6.25 µg/mL
CCc1nc2ccc(C)cc2n1CCCSc1ccc(OC)cc1 |  | WT | turbidity / fluorescence | MIC90 | H37Rv |  | 4.6 µM
Cc1ccc(C2SCC(=O)N2C(=O)NCCCN2c3ccccc3Sc3ccccc32)cc1 |  |  | agar | inhibition | H37Rv | 25 µg/mL | 29%
NC(=O)c1cnccn1 |  |  |  | MIC | Isolate 10257 monodrug-resistant |  | >300 µg/mL
C=C(NC(=O)c1csc(-c2nc3c(cc2O)-c2nc(cs2)C(=O)N[C@@H]([C@@H](C)O)C(=O)N/C(=C(\C)OC)c2nc(cs2)C(=O)N[C@@H]2c4nc(cs4)C(=O)N[C@@H](COC(=O)c4c5c6c(cccc6n4O)COC(=O)[C@@H](O[C@H]4C[C@]6(C)OCN(C)[C@@H]6[C@H](C)O4)[C@H]2OC5)c2nc-3cs2)n1)C(N)=O |  |  | broth dilution | MIC | Clinical Isolate 913 |  | 10–100 µM
CC(C)(C)c1ccc(CN2CCC3(CC2)C(=O)Nc2ccccc23)cc1 |  |  | colony count / visual reading | MBC | H37Rv |  | 12 µM
CCc1nc2ccccc2n1CCCCSc1nnc(-c2ccc(Cl)cc2)o1 |  | WT | turbidity / fluorescence | MIC90 | H37Rv |  | 0.15 µM
COc1ccc(-c2noc(C3=CC4(CCN(CC(=O)N(C)C)CC4)c4ccccc43)n2)cc1 |  |  | resazurin | MIC | H37Rv |  | 6.3 µM
CC[C@@H]1OC(=O)[C@H](C)[C@H](OC2CC(C)(OC)C(OC(=O)CCCC(=O)O)C(C)O2)[C@@H](C)[C@H](OC2OC(C)CC(N(C)C)C2O)[C@@](C)(O)C[C@H](C)C(=O)[C@@H](C)[C@H](O)[C@@]1(C)O |  |  | BACTEC | inhibition | H37Rv | 128 µg/mL | 56%
O=C1CSC(c2ccccc2Br)N1C(=O)NCCCN1c2ccccc2Sc2ccccc21 |  |  | agar | inhibition | H37Rv | 25 µg/mL | 30%
N#C/C(=C\c1ccc([N+](=O)[O-])o1)c1ccccc1 |  |  | BACTEC | MIC | H37Rv |  | ≥12.5 µg/mL
CCCCCCCCCOc1ccc(NC(=O)OCCN2CCOCC2)cc1 |  |  |  | MIC | My 331/88 |  | 16 µM
NNC(=O)c1c[nH]c2ccccc2c1=O |  |  | BACTEC | MIC | H37Rv |  | ≥12.5 µg/mL
Nc1ccccc1/C=C/C(=O)c1ccc(Br)cc1O |  |  |  | EC50 | H37Rv |  | >12.5 µg/mL
CCc1nc2ccccc2n1CCCCOc1ccc(Cl)cc1C |  | Rv1339 V90M | turbidity / fluorescence | MIC90 | H37Rv |  | 7.8 µM
CO/C(C)=C1/NC(=O)[C@H]([C@@H](C)O)NC(=O)c2csc(n2)-c2cc(O)c(-c3nc(C(=O)NCCCN4CCOCC4)cs3)nc2-c2csc(n2)[C@@H]2COC(=O)c3c4c5c(cccc5n3O)COC(=O)[C@@H](O[C@H]3C[C@](C)(O)[C@H](N(C)C)[C@H](C)O3)[C@@H](OC4)[C@H](NC(=O)c3csc1n3)c1nc(cs1)C(=O)N2 |  |  | broth dilution | MIC | Clinical isolate 11677 |  | ≤25 µM
O=c1[nH]c(=O)c2nc3cc(Cl)ccc3nc2[nH]1 |  |  | BACTEC | inhibition | H37Rv | 12.5 µg/mL | 21%
CC[C@@H](CO)NCCN[C@@H](CC)CO |  | Streptomycin-resistant | resazurin | MIC | 136570 |  | 1.2 µM
NNC(=O)c1ccncc1 |  | Rifampicin- and isoniazid-resistant | broth dilution | MIC | Clinical isolate 15552 |  | >10 µM
CCc1nc2ccccc2n1CCCCOc1ccc(C)c(Cl)c1 |  | WT | turbidity / fluorescence | MIC90 | H37Rv |  | 3.5 µM
C1=C(c2nc(-c3cccnc3)no2)c2ccccc2C12CCN(CC1CCCO1)CC2 |  | Spiroindene-resistant | turbidity | MIC | TB365 |  | >31 µM
CCc1nc2ccccc2n1CCCCOc1ccc(Cl)cc1 |  | WT | turbidity / fluorescence | MIC90 | H37Rv |  | 14 µM
Cc1cc(-c2cc3c(cc2F)c(=O)c(C(=O)O)cn3C2CC2)cc(C)n1 |  |  |  | MBC | H37Rv |  | 4 µg/mL
CCOc1c(N=Nc2ccc(Cl)cc2Cl)c(C)nn1C(=S)S |  |  |  | MIC | RMP-R |  | >12.5 µg/mL
CC(C)N=c1cc2n(-c3ccc(Cl)cc3)c3ccccc3nc-2cc1Nc1ccc(Cl)cc1 |  |  |  | MIC | 90-0216 (drug-susceptible) |  | 0.4 µg/mL
NNC(=O)C(=O)NN=C(C(Cl)(Cl)CO)C(Cl)(Cl)CO |  |  | BACTEC | MIC bound | H37Rv |  | >12.5 µg/mL
O=C(/C=C/c1ccccc1I)c1ccccc1O |  |  |  | EC50 | H37Rv |  | >12.5 µg/mL
Cn1ccn(CCCCCCn2ccn(C)c2=S)c1=S |  |  | BACTEC | MIC bound | H37Rv |  | >12.5 µg/mL
O=C1CSC(c2ccccc2[N+](=O)[O-])N1C(=O)NCCCN1c2ccccc2Sc2ccccc21 |  |  | agar | inhibition | H37Rv | 50 µg/mL | 70%
CCCCCC1(C)Cn2cc([N+](=O)[O-])nc2O1 |  |  |  | MIC | H37Rv-14A1 (PA-824-resistant) |  | 3.2 µM
C[C@@H]1CN(c2c(F)c(N)c3c(=O)c(C(=O)O)cn(C4CC4)c3c2F)C[C@H](C)N1 |  |  |  | MIC | 90-0216 (drug-susceptible) |  | 0.2 µg/mL
CC1OC(C)C(O)C2=C1C(=O)c1ccccc1C2=O |  |  | BACTEC | MIC | H37Rv |  | 12.5 µg/mL
O=C1c2c(O)cc(O)cc2OC(c2ccc(O)cc2)C1c1c(O[C@@H]2O[C@H](CO)[C@@H](O)[C@H](O)[C@H]2O)cc(O)c2c(=O)cc(-c3ccc(O)cc3)oc12 |  |  |  | EC50 | H37Rv |  | >12.5 µg/mL
COc1cccc2c1[n+]([O-])c1cccc(O)c1[n+]2[O-] |  |  |  | MIC | RMP-R |  | 0.8 µg/mL
NCC[C@H](O)C(=O)N[C@@H]1C[C@H](N)[C@@H](O[C@H]2O[C@H](CN)[C@@H](O)[C@H](O)[C@H]2O)[C@H](O)[C@H]1O[C@H]1O[C@H](CO)[C@@H](O)[C@H](N)[C@H]1O |  |  |  | MIC | 92-0492 MDR (INH RIF-resistant) |  | 1 µg/mL
O=c1c2ccccc2c2ccccc2n1O |  |  | BACTEC | inhibition | H37Rv | 12.5 µg/mL | 24%
COc1ccc(/C=C/C(=O)c2ccccc2F)cc1 |  |  |  | EC50 |  |  | <12.5 µg/mL
Cc1ccc2c(n1)Nc1nc(N)nc(Cl)c1S2 |  |  | BACTEC | MIC bound | H37Rv |  | >12.5 µg/mL
CC[C@H]1OC(=O)[C@H](C)[C@@H](O[C@H]2C[C@@](C)(OC)[C@@H](O)[C@H](C)O2)[C@H](C)[C@@H](O[C@@H]2O[C@H](C)C[C@H](N(C)C)[C@H]2O)[C@](C)(OC)C[C@@H](C)C(=O)[C@H](C)[C@@H](O)[C@]1(C)O |  |  |  | MIC | 90-0201 (drug-susceptible) |  | 2 µg/mL